The test system of this series is D. microsporus. The experiment in a line: Production of the isolated compounds in fungal culture, determined by MS with standards. The arrangement: species or system Doratomyces microsporus.
The mark [1] stands for this setting: supernatant of VPA treated (+VPA, 50 μM) D. microsporus.
Setting [2] is: supernatant of VPA + Trp treated D. microsporus.
Where [3] appears, read: supernatant of tryptophan treated (+Trp) D. microsporus.
[4] abbreviates: supernatant of untreated D. microsporus.

As for `CC(C)(O)CC(N)=O` [3-hydroxy-3-methylbutanamide], the Amount under setting [1] was 0.004 mg/L.

Take `O=Cc1ccc(O)cc1` [4FP, p-hydroxybenzaldehyde]: the “x-fold of untreated extract” value is on record as 1 (+Trp), 1.25 (+VPA) and 1 (VPA + Trp). Moreover, the Amount turned out to be 0.04 mg/L under setting [2], 0.05 mg/L under setting [1], 0.04 mg/L under setting [3] and 0.04 mg/L under setting [4].

In turn, `CC(=O)NCCCCC(=O)O` [5-acetamido pentanoic acid, 5-acetamidopentanoic acid] yielded an Amount under setting [1] of 0.02 mg/L.

With `O=C(O)Cc1c[nH]c2ccccc12` [IAA, indole-3-acetic acid], the “x-fold of untreated extract” value runs as follows: (+VPA) 8; (VPA + Trp) 57. Also, the Amount is, setting by setting: under setting [2], 0.57 mg/L; under setting [1], 0.08 mg/L; under setting [3], 0.43 mg/L; under setting [4], 0.01 mg/L.

As to `O=C(O)c1c[nH]c2ccccc12` [ICA, indole-3-carboxylic acid], the “x-fold of untreated extract” value was found to be 17 (+Trp), 5 (+VPA) and 17 (VPA + Trp). Besides, the Amount under setting [2] was 0.17 mg/L, the Amount under setting [1] is 0.05 mg/L, the Amount under setting [3] is 0.17 mg/L and the Amount under setting [4] was 0.01 mg/L.

As to `CC(=O)NCCCCCO` [N-(5 hydroxy pentyl)acetamide, N-(5-hydroxypentyl)acetamide], the Amount under setting [1] stood at 0.01 mg/L.

As for `O=C(O)C(O)Cc1ccccc1` (centres unmarked) [PLA, phenyllactic acid], the Amount was 0.07 mg/L under setting [1] and “not detectable” under setting [4].

As to `CSCCC1NC(=O)C2CCCN2C1=O` [cPM, cyclo-(L-proline-L-methionine)], the “x-fold of untreated extract” value runs as follows: (+Trp) 1; (+VPA) 3.5; (VPA + Trp) 2. Besides, the Amount by setting is: under setting [2], 0.04 mg/L; under setting [1], 0.07 mg/L; under setting [3], 0.02 mg/L; under setting [4], 0.02 mg/L.

Values taken from publication PMC4829596 (Frontiers in Microbiology, 2016).
